Pooled drug test results. Numbers come from NIAID ChemDB, via PubChem.

All rows: tests in culture; species: Herpes simplex virus 1; read by: cytopathic effect; read-out: EC50

ECn is the concentration giving n% inhibition of infection, replication or growth. Lines come from different laboratories, so protocols vary. Blank or dashed fields: not listed here.

structure,cells,strain or isolate,mutations,result
O=c1c2ncn(COC(CO)CO)c2nc2[nH]c(-c3ccccc3)cn12,-,McIntyre,-,0.005 µg/mL
C=C(N=CC)c1nc(-c2ccc(OC)cc2)n(C2O[C@H](CO)[C@@H](O)[C@H](O)[C@H]2O)n1,E6SM,VMW 1837,-,>200 µg/mL
CCc1nc(-n2c(-c3ccccc3)nc3ccc(Br)cc3c2=O)nc(N)c1-c1ccc(Cl)cc1,E6SM,KOS ACV (TK-),-,>16 µg/mL
CC(=O)OCCOCn1cnc2c(=O)n3cc(-c4ccc5ccccc5c4)[nH]c3nc21,-,McIntyre,-,>16 µg/mL
O=c1ccn(COCCO)c(=O)[nH]1,PRK,-,-,>400 µg/mL
Nc1nc(N)c2ncn(C[C@H](CO)OCP(=O)(O)O)c2n1,E6SM,KOS F McIntyre,-,14 µM
O=C(O)C(O[C@@H]1CC[C@H](n2cc(F)c(=O)[nH]c2=O)C1)P(=O)(O)O,HEL,KOS,-,>250 µM
CC=NC(=N)c1nc(-c2ccc(C)cc2)n(Cc2ccccc2)n1,E6SM,KOS,-,>4 µg/mL
Cc1nc2c(=O)[nH]c(N)nc2n1COCCO,PRK,-,-,0.5 µg/mL
CC(=O)OC[C@H]1OC(OC(=O)NS(=O)(=O)OC[C@H]2O[C@@H](n3ccc(=O)[nH]c3=O)[C@@H]3OC(C)(C)O[C@@H]32)[C@H](OC(C)=O)[C@@H](OC(C)=O)[C@@H]1OC(C)=O,HeLa,-,-,90 µM
Nc1ncnc2c1ncn2[C@@H]1O[C@H](CO)[C@@H](O)[C@@H]1O,PRK,-,-,3 µg/mL
Cc1cc([C@@H]2C[C@H](O)[C@@H](CO)O2)c(F)cc1F,E6SM,KOS/ACV-R,-,>400 µg/mL
O=c1c2ncn(COC(CO)CO)c2nc2[nH]c(-c3ccc(F)cc3)cn12,HEL,F,-,0.384 µg/mL
Nc1nc(N)c2ncn(C[C@@H](CO)OCP(=O)(O)O)c2n1,E6SM,KOS F McIntyre,-,0.22 µM
OC[C@H]1O[C@@H](c2ccc(F)cc2F)C[C@@H]1O,E6SM,F,-,>400 µg/mL
C#C[C@@H](O)C1=C[C@@H](n2cnc3c(N)ncnc32)[C@H](O)[C@@H]1O,E6SM,KOS,-,>400 µg/mL
OC[C@H]1O[C@@H](c2cc(C(O)CI)c(F)cc2F)C[C@@H]1O,E6SM,TK-deficient acyclovir-resistant,-,>16 µg/mL
CC=NC(=N)c1nc(-c2cccc(OC)c2)n(Cc2ccccc2)n1,E6SM,KOS,-,>10 µg/mL
COC[C@H]1O[C@@H](n2cnc3c(N)ncnc32)[C@H](O)[C@@H]1O,PRK,-,-,>100 µg/mL
COc1cc(Cc2cnc(-n3c(C)nc4ccc(Br)cc4c3=O)nc2N)cc(OC)c1OC,E6SM,KOS,-,>80 µg/mL
Nc1ncnc2c1ncn2C[C@H](CF)OCP(=O)(O)O,E6SM,KOS F McIntyre,-,>1200 µM
Nc1ncnc2c1ncn2C[C@@H](CO)OCP(=O)(O)O,HEL,-,-,0.02 µM
COc1cc(Cc2cnc(-n3c(-c4ccccc4)nc4ccc(Br)cc4c3=O)nc2N)cc(OC)c1OC,E6SM,KOS ACV (TK-),-,48 µg/mL
O=c1c2ncn(COC(CO)CO)c2nc2[nH]c(-c3ccc(C(F)(F)F)cc3)cn12,HEL,McIntyre,-,1.92 µg/mL
Nc1nc(=O)n([C@H]2C[C@H](O)[C@@H](CO)O2)cc1/C=C/Br,Primary rabbit kidney cells,F,-,0.07 µg/mL
O=c1c2ncn(COCCO)c2nc2[nH]c(-c3ccccc3)c(Cc3ccc(F)cc3)n12,HEL,TK-,-,>16 µg/mL
C[C@@H](Cn1cnc2c(N)nc(N)nc21)OCP(=O)(O)O,E6SM,KOS F McIntyre,-,993 µM
O=c1[nH]c(=O)n([C@@H]2OC3COP(=O)(O)OC3[C@H]2O)cc1I,PRK,F,-,40 µg/mL
Nc1nc(=O)ccn1COCCO,PRK,-,-,>400 µg/mL
COc1ccc(-c2cn3c(=O)c4ncn(COC(CO)CO)c4nc3[nH]2)cc1,-,KOS,-,0.005 µg/mL
OC[C@H]1O[C@@H](c2cc(C(O)C(I)I)c(F)cc2F)C[C@@H]1O,E6SM,KOS (TK-),-,>80 µg/mL
CC[C@@H](O)C1=C[C@@H](n2cnc3c(N)ncnc32)[C@H](O)[C@@H]1O,E6SM,B2006 (TK-),-,>400 µg/mL
O=c1c2ncn(COCCO)c2nc2[nH]c(-c3ccccc3)c(-c3ccc(C(c4ccccc4)c4ccccc4)cc3)n12,-,TK-deficient acyclovir-resistant,-,>16 µg/mL
CNc1nc2c(=O)[nH]c(N)nc2n1COCCO,PRK,-,-,7 µg/mL
Cc1cn([C@H]2CC[C@@H](OCC(=O)O)C2)c(=O)[nH]c1=O,HEL,KOS,TK-deficient acyclovir-resistant,>250 µM
COc1ccc(-c2[nH]c3nc4c(ncn4COCCO)c(=O)n3c2C)cc1,HEL,F,-,0.384 µg/mL
CC(=O)O[C@]1(C)/C=C/C[C@@H](C)/C=C/[C@@]2(C)CC[C@@H](C(C)(C)O)[C@@H]2[C@@H](O)C1,VERO,-,-,<15 µM
COc1cc2c(cc1OC)[C@@H]1C(N)CSCON1CC2,E6SM,B2006 (TK-),-,0.07 µg/mL
OC[C@H]1O[C@H](c2cc(F)c(F)cc2F)C[C@@H]1O,E6SM,VMW 1837,-,>400 µg/mL
Nc1ncnc2c1ncn2COCCO,PRK,-,-,10 µg/mL
CC1(C)O[C@@H]2[C@H](O1)[C@@H](COS(=O)(=O)NC(=O)OC1O[C@H](CO)[C@@H](O)[C@H](O)[C@H]1O)O[C@H]2n1ccc(=O)[nH]c1=O,HeLa,-,-,75 µM
C=C(N=CC)c1nc(-c2ccc(OC)cc2)n([C@@H]2O[C@H](CO)[C@@H](O)[C@H]2O)n1,E6SM,VMW 1837,-,>400 µg/mL
Nc1nc2c(ccn2[C@H]2CO[C@@H](CO)C2)c(=O)[nH]1,E6SM,VMW1837 (TK-),-,300 µg/mL
Cc1cc([C@H]2C[C@H](O)[C@@H](CO)O2)c(F)cc1Cl,E6SM,VMW 1837,-,>400 µg/mL
C[C@H](Cn1cnc2c(N)nc(N)nc21)OCP(=O)(O)O,E6SM,KOS F McIntyre,-,496 µM
Nc1nc(Cl)c2ccn([C@H]3CO[C@@H](CO)C3)c2n1,E6SM,KOS,-,>400 µg/mL
NC1CCCON2CCc3c([nH]c4ccccc34)[C@H]12,PRK,VMW1837 (TK-/TK+),-,2 µg/mL

Again, the opening 4 rows:

structure	cells	strain or isolate	mutations	result
O=c1c2ncn(COC(CO)CO)c2nc2[nH]c(-c3ccccc3)cn12	-	McIntyre	-	0.005 µg/mL
C=C(N=CC)c1nc(-c2ccc(OC)cc2)n(C2O[C@H](CO)[C@@H](O)[C@H](O)[C@H]2O)n1	E6SM	VMW 1837	-	>200 µg/mL
CCc1nc(-n2c(-c3ccccc3)nc3ccc(Br)cc3c2=O)nc(N)c1-c1ccc(Cl)cc1	E6SM	KOS ACV (TK-)	-	>16 µg/mL
CC(=O)OCCOCn1cnc2c(=O)n3cc(-c4ccc5ccccc5c4)[nH]c3nc21	-	McIntyre	-	>16 µg/mL